# Measured values from ChEMBL document CHEMBL1157539, “Thousands of chemical starting points for antimalarial lead identification” (Nature, 2010).
# The entries are a selection whose mix differs from that of the whole data set.
# System: Plasmodium falciparum
# Experiment: GSK_TCMDC: Inhibition of Plasmodium falciparum 3D7 LDH activity, using an LDH reporter assay. Test compounds present at 2uM
# Format: functional, organism-based
row,Structure (SMILES),inhibition
1,CCN1CCCC1COC(=O)C(O)(c1ccc2c(c1)OCO2)c1ccc2c(c1)OCO2 (configuration not stated),0%
2,CCN1CCCC(OC(=O)C(O)(c2ccc3c(c2)OCO3)c2ccc3c(c2)OCO3)C1 (configuration not stated),0%
